A value given as a limit tells only on which side of the number the result lay.

In this experiment the target is NS5B-δ21 from HCV GT-1b Con-1 (Hepatitis C virus genotype 1b (isolate Con1) (HCV), UniProt Q9WMX2). Kind of experiment: HCV NS5B pol assay.

The molecule `CC1(O)C(O)[C@@H](COP(=O)(O)OP(=O)(O)OP(=O)(O)O)O[C@H]1n1ccc(=O)[nH]c1=[Se]` (stereo partly drawn) [ENUC-02059] registered an IC50 of 50.1 µM. Besides, where the note is “32P-GTP”, the 25% effect concentration (IC25) stood at 6.82 µM and the “IC95” value is above 100 µM.

These data come from patent US11857560B2, “Pharmaceutical compositions comprising substituted nucleotides and nucleosides for treating viral infections” (priority 2013, dated 2024).
